Biological target: Human immunodeficiency virus type 1 integrase (Human immunodeficiency virus 1) (UniProt Q7ZJM1)
Assay: Percentage inhibition of compound against 3'-processing of HIV-1 integrase at 100 ug/mL

Chains of the proteins cited; added tags and fusions are not shown. Residues count along the entry.
UniProt Q7ZJM1, 1-288: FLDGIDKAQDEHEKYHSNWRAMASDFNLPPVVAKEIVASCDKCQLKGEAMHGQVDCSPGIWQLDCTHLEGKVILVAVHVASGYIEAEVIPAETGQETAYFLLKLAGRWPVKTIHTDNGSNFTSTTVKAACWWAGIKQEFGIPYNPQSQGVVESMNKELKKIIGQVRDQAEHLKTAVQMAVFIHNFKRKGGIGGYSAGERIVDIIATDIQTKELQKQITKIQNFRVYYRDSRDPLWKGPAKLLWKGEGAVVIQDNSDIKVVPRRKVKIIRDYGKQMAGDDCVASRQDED

O=C(O)c1c([N+](=O)[O-])cc([N+](=O)[O-])c(-c2c([N+](=O)[O-])cc([N+](=O)[O-])c(C(=O)O)c2[N+](=O)[O-])c1[N+](=O)[O-]
inhibition: 97.9%
